Pooled drug test results. Numbers come from NIAID ChemDB, via PubChem.

All rows: tests in culture; agent: Herpes simplex virus 2; cell line: PRK; read by: cytopathic effect; endpoint: EC50

Rows are shuffled and stem from different studies. ECn: concentration that inhibits the pathogen or its effect by n%. a–b is a range or a potency band.

CCc1cn([C@H]2C[C@H](O)[C@@H](CO)O2)c(=O)[nH]c1=O ; strain or isolate: 196 ; value: 0.2 µg/mL
CCc1cn([C@H]2C[C@H](O)[C@@H](CO)O2)c(=O)[nH]c1=O ; strain or isolate: 196 ; value: 2 µg/mL
CCc1cn([C@H]2C[C@H](O)[C@@H](CO)O2)c(=O)[nH]c1=O ; strain or isolate: LYONS ; value: 4 µg/mL
O=c1[nH]c(=O)n([C@H]2C[C@H](O)[C@@H](CO)O2)cc1I ; strain or isolate: VDX192 ; value: 0.4 µg/mL
O=c1[nH]c(=O)n([C@H]2C[C@H](O)[C@@H](CO)O2)cc1I ; strain or isolate: G ; value: 0.2 µg/mL
Nc1nc(=O)n(C2CC(O)C(CO)O2)cc1CCCl ; strain or isolate: LYONS ; value: 5 µg/mL
[N-]=[N+]=NCc1cn([C@H]2C[C@H](O)[C@@H](CO)O2)c(=O)[nH]c1=O ; strain or isolate: VCX304 ; value: 7 µg/mL
[N-]=[N+]=N[C@@H]1[C@@H](OP(=O)(O)OC[C@H]2O[C@@H](n3cnc4c(N)ncnc43)[C@H](OP(=O)(O)OCCOCn3cnc4c(=O)[nH]c(N)nc43)[C@H]2N=[N+]=[N-])[C@H](n2cnc3c(N)ncnc32)O[C@@H]1CO ; strain or isolate: LYONS ; value: 2 µg/mL
O=c1[nH]c(=O)n([C@H]2C[C@H](O)[C@@H](COP(=O)(O)O)O2)cc1CCc1ccccc1 ; strain or isolate: G ; value: 15 µg/mL
Nc1ncnc2c1ncn2C[C@@H](CO)OCP(=O)(O)O ; strain or isolate: G ; value: 1–3 µg/mL
CCc1cn([C@H]2C[C@H](O)[C@@H](COP(=O)(O)O)O2)c(=O)[nH]c1=O ; strain or isolate: 196 ; value: 0.2 µg/mL
Nc1nc2c(ncn2COCCOP(=O)(O)O[C@@H]2[C@H](O)[C@@H](COP(=O)(O)O[C@@H]3[C@H](O)[C@@H](CO)O[C@H]3n3cnc4c(N)ncnc43)O[C@H]2n2cnc3c(N)ncnc32)c(=O)[nH]1 ; strain or isolate: LYONS ; value: 0.7 µg/mL
O=c1[nH]c(=O)n([C@@H]2O[C@H](CO)[C@@H](O)[C@@H]2O)cc1/C=C/Br ; strain or isolate: LYONS ; value: 20 µg/mL
O=c1[nH]c(=O)n([C@H]2C[C@H](O)[C@@H](CO)O2)cc1/C=C/Br ; strain or isolate: LYONS ; value: 7 µg/mL
O=Cc1cn([C@H]2C[C@H](O)[C@@H](CO)O2)c(=O)[nH]c1=O ; strain or isolate: VCX210 ; value: 4 µg/mL
O=c1[nH]c(=O)n([C@H]2C[C@H](O)[C@@H](CO)O2)cc1CCCl ; strain or isolate: G ; value: 2.1 µg/mL
CSCc1cn([C@H]2C[C@H](O)[C@@H](CO)O2)c(=O)[nH]c1=O ; strain or isolate: 196 ; value: 4 µg/mL
CCc1cn([C@H]2C[C@H](O)[C@@H](CO)O2)c(N)nc1=O ; strain or isolate: G ; value: >400 µg/mL

3 of the rows above, restated:

structure,strain or isolate,value
O=c1[nH]c(=O)n([C@H]2C[C@H](O)[C@@H](COP(=O)(O)O)O2)cc1CCc1ccccc1,G,15 µg/mL
O=c1[nH]c(=O)n([C@H]2C[C@H](O)[C@@H](CO)O2)cc1CCCl,G,2.1 µg/mL
O=Cc1cn([C@H]2C[C@H](O)[C@@H](CO)O2)c(=O)[nH]c1=O,VCX210,4 µg/mL